Results deposited as PubChem BioAssay AID1259414 (Drosophila RNAi Screening Center, 2018).
The deposit covers about 24,000 reagents; below is an unselected part of those with a known target gene and a result. Of all reagents, about 1,210 (5%) were called active. 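Inactive calls also include excluded dsRNAs with several or no targets, genes unexpressed in JW18, and well A1, regardless of score.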 A number with no mark means an inactive call. Reagents against one gene are numbered here.

Screen: 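Host factors increasing or decreasing Wolbachia levels in cultured fly cells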 (primary screen)
Cells: Drosophila JW18 cells infected with Wolbachia
Knock-down reagent: long dsRNA against Drosophila genes, 0.25 µg dsRNA per well of a 384-well plate
Duration: 5 days
Conditions: cells persistently infected with Wolbachia before knock-down; no added drug
Read-out: 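Automated imaging of bacterial rRNA staining divided by host cell count, reported as plate-normalised robust z-score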
Direction: Wolbachia per cell robust z: higher = more Wolbachia per host cell than the plate typical
Call rule: 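Hit when robust z is 1.5 or more, or -1.5 or less, in at least two of three replicates; excludes dsRNAs with several or no targets, genes not expressed in JW18 and well A1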

gene	reagent	Wolbachia per cell robust z, rep 1	Wolbachia per cell robust z, rep 2	Wolbachia per cell robust z, rep 3
Flad1 (GeneID 32240)	1	0.278	-2.37	0.421
CG5877 (GeneID 32455)	1	-2.63	0.581	0.303
CG5877 (GeneID 32455)	2	1.37	1.31	0.801
Krn (GeneID 326198)	1	1.21	0.823	0.828
ome (GeneID 44297)	1	0.441	0.826	-0.225
ome (GeneID 44297)	2	-0.741	0.238	0.758
ome (GeneID 44297)	3	0.093	-1.04	0.837
Mgat3 (GeneID 318981)	1	-0.91	-0.952	-1.53
Mgat3 (GeneID 318981)	2	0.0686	-0.563	-0.467
Galphao (GeneID 36104)	1	-0.173	0.301	-0.00931
Galphao (GeneID 36104)	2	0.236	0.149	-0.225
CG33307 (GeneID 2768914)	1	-0.206	-1.19	0.0232
CG33474 (GeneID 2768725)	1	-1.14	-1.61	0.181
CG8006 (GeneID 38920)	1	-0.632	0.336	0.949
CG15553 (GeneID 43677)	1	0.251	-0.05	-0.0867
Cht2 (GeneID 38223)	1	-0.2	1.06	-1.73
Cht2 (GeneID 38223)	2	-1.29	-0.297	-0.55
ATPsynepsilonL (GeneID 326144)	1	0.46	0.419	-0.0515
ATPsynepsilonL (GeneID 326144)	2	0.0384	-0.26	0.482
JhI-26 (GeneID 36819)	1	-1.45	0.11	-1.46
JhI-26 (GeneID 36819)	2	0.0857	0.458	0.234
CG43108 (GeneID 12798329)	1	0.648	-2.27	-1.21
Mal-A4 (GeneID 35827)	1	0.798	0.797	1.38
Mal-A4 (GeneID 35827)	2	-0.634	-0.162	-2.69
Nepl17 (GeneID 43408)	1	-0.547	0.159	-0.912
CG14866 (GeneID 41854)	1	-0.753	-0.602	-0.934
EndoB (GeneID 37218)	1	-0.638	0.703	0.677
Phm (GeneID 37823)	1	-4.28	1.42	-3.48

4 entries from above, reduced to “Wolbachia per cell robust z, rep 3”:
Flad1 (GeneID 32240) = 0.421
CG5877 (GeneID 32455) #1 = 0.303
CG5877 (GeneID 32455) #2 = 0.801
Krn (GeneID 326198) = 0.828
